{"source": "PubChem BioAssay AID504761 (Drosophila RNAi Screening Center, 2011)", "aim": "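Genome-wide fly cell screen for genes dengue virus requires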 (primary screen)", "cells": "D.Mel-2 cells from Drosophila", "reagents": "long dsRNA against Drosophila genes", "challenge": "infection with dengue virus type 2; dose and infection time not stated", "measurement": "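Per well on two replicate plates, imaging gave the percent of cells positive for viral envelope protein, ranked by infection, and a nuclear count of cells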", "direction": "infection score: higher = more virus-infected cells", "rule for the call": "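Low infection ranks in the two replicates (chance level up to 0.065) followed by a retest with a 1.5-fold or larger significant decrease, p below 0.05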", "calls": "active = confirmed: knock-down lowers infection; inactive = not picked or not confirmed", "note": "The deposit covers about 22,000 reagents; shown is an unselected part of those that have a named target and a result. Of all reagents, 116 (0.52%) got an active call. 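Calls depend on retest data that are not deposited; infection was ranked per plate without normalising between plates; the unit of the infection score is not given.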 Further read-outs or replicates are left out here. Reagent sequences are not shown. The record does not give: the amount of reagent, the time to read-out."}
{"target gene": "CG4707", "PubChem SID": "SID104184275", "infection score, replicate 1": 4.65, "call": "inactive"}
{"target gene": "DCP2", "PubChem SID": "SID104190389", "infection score, replicate 1": 7.12, "call": "inactive"}
{"target gene": "Gnptab", "PubChem SID": "SID104186849", "infection score, replicate 1": 7.02, "call": "inactive"}
{"target gene": "IFT43", "PubChem SID": "SID104182684", "infection score, replicate 1": 22.6, "call": "inactive"}
{"target gene": "Nep7", "PubChem SID": "SID104195622", "infection score, replicate 1": 5.3, "call": "inactive"}
{"target gene": "Nep7", "PubChem SID": "SID104205126", "infection score, replicate 1": 1.34, "call": "inactive"}
{"target gene": "Lst", "PubChem SID": "SID104186938", "infection score, replicate 1": 5.54, "call": "inactive"}
{"target gene": "Lst", "PubChem SID": "SID104207848", "infection score, replicate 1": 23.5, "call": "inactive"}
{"target gene": "Nipped-A", "PubChem SID": "SID104184675", "infection score, replicate 1": 15.4, "call": "inactive"}
{"target gene": "Nipped-A", "PubChem SID": "SID104184676", "infection score, replicate 1": 51.9, "call": "inactive"}
{"target gene": "Nipped-A", "PubChem SID": "SID104187530", "infection score, replicate 1": 5.96, "call": "inactive"}
{"target gene": "Nipped-A", "PubChem SID": "SID104201865", "infection score, replicate 1": 2.46, "call": "inactive"}

Laid out differently: results already given
CG4707 [SID104184275]: infection score, replicate 1 = 4.65; call = inactive
DCP2 [SID104190389]: infection score, replicate 1 = 7.12; call = inactive

Additional records follow:
{"target gene": "CG12259", "PubChem SID": "SID104202638", "infection score, replicate 1": 0.78, "call": "inactive"}
{"target gene": "CG12259", "PubChem SID": "SID104206724", "infection score, replicate 1": 2.91, "call": "inactive"}
{"target gene": "VhaSFD", "PubChem SID": "SID104183263", "infection score, replicate 1": 9.3, "call": "inactive"}
{"target gene": "Vm26Ab", "PubChem SID": "SID104183265", "infection score, replicate 1": 3.77, "call": "inactive"}
{"target gene": "Vm26Ab", "PubChem SID": "SID104203769", "infection score, replicate 1": 1.8, "call": "inactive"}
{"target gene": "CG15211", "PubChem SID": "SID104199449", "infection score, replicate 1": 6.29, "call": "inactive"}
{"target gene": "Adk3", "PubChem SID": "SID104185709", "infection score, replicate 1": 5.17, "call": "inactive"}
{"target gene": "Adk3", "PubChem SID": "SID104206550", "infection score, replicate 1": 8.27, "call": "inactive"}
{"target gene": "CG10887", "PubChem SID": "SID104194069", "infection score, replicate 1": 2.16, "call": "inactive"}
{"target gene": "CG10887", "PubChem SID": "SID104206364", "infection score, replicate 1": 7.15, "call": "inactive"}
{"target gene": "CG12576", "PubChem SID": "SID104200413", "infection score, replicate 1": 3.51, "call": "inactive"}
{"target gene": "CG12576", "PubChem SID": "SID104204798", "infection score, replicate 1": 10.6, "call": "inactive"}
{"target gene": "CG8777", "PubChem SID": "SID104187055", "infection score, replicate 1": 8.48, "call": "inactive"}
{"target gene": "CG1812", "PubChem SID": "SID104200349", "infection score, replicate 1": 5.34, "call": "inactive"}
{"target gene": "CG1812", "PubChem SID": "SID104205313", "infection score, replicate 1": 8.32, "call": "inactive"}
